According to BindingDB's records for doi:10.1016/j.bmcl.2018.10.045 (Merck, 2019):

Experiments:
[1] = Inhibition of NS5B polymerase S365A mutant in HCV genotype 1A infected in HuH7 cells after 40 hrs by Taqman probe based RT-PCR analysis
[2] = Inhibition of NS5B polymerase C316Y mutant in HCV genotype 1A infected in HuH7 cells after 40 hrs by Taqman probe based RT-PCR analysis
[3] = Inhibition of NS5B polymerase E1202G/T1280I/S2197P mutant in HCV genotype 2a infected in human HuH7 replicon cells after 72 hrs in presence of 10% FBS by luciferase-based reporter assay
[4] = Inhibition of NS5B polymerase E1202G/T1280I/S2197P mutant in HCV genotype 1a infected in human HuH7 replicon cells after 72 hrs in presence of 10% FBS by luciferase-based reporter assay
[5] = Inhibition of NS5B polymerase E1202G/T1280I/S2197P mutant in HCV genotype 1b infected in human HuH7 replicon cells after 72 hrs in presence of 10% FBS by luciferase-based reporter assay
[6] = Inhibition of NS5B polymerase E1202G/T1280I/S2197P mutant in HCV genotype 1b infected in human HuH7 replicon cells after 72 hrs in presence of 50% human serum by luciferase-based reporter assay

`CNC(=O)c1c(-c2ccc(F)cc2)oc2cc(N(C)S(C)(=O)=O)c(-c3ccc4c(n3)-c3cc5c(F)cccc5n3CO4)cc12` [US9265773, 2] showed an EC50 [1] of 1.1 nM, an EC50 [2] of 2.7 nM and an EC50 [3] of 1.6 nM. For the same molecule, the EC50 [4] was 2.4 nM, the EC50 [5] was 2.7 nM and the EC50 [6] was 27 nM.
